{"source": "patent US20240401239A1", "about": "(US Dept. of Health and Human Services, published 2024)", "binders": {"B1": {"name": "single-domain antibody RBD-1-2G (VHH)", "VHH": "EVQLVESGGGLVQPGGSLRLSCAASGFSSIVYMGWFRQAPGKGRELVAAIDASGSTTNYPDSVEGRFTISRDNAKRMVYLQMNSLRAEDTAVYYCAIAYFTSPEYVVSQGWGQGTQVTVSS", "notes": "also called RBD-1-2G Nb; RBD-1-2G nanobody"}, "B2": {"name": "RBD-1-2G-Fc (Fc fusion)", "chain": "EVQLVESGGGLVQPGGSLRLSCAASGFSSIVYMGWFRQAPGKGRELVAAIDASGSTTNYPDSVEGRFTISRDNAKRMVYLQMNSLRAEDTAVYYCAIAYFTSPEYVVSQGWGQGTQVTVSS", "notes": "also called bivalent format of RBD-1-2G"}}, "target": "SARS-COV-2 RBD quantum dots (QD608-RBD) (SARS-COV-2, UniProt P0DTC2 319-541)", "assay": "cell-based or functional assay", "data": [{"binder": "B1", "values": [{"measurement": "IC50, QD608-RBD endocytosis assay on ACE2-GFP HEK293T cells", "value": 390, "unit": "nM"}]}, {"binder": "B2", "values": [{"measurement": "IC50, QD608-RBD endocytosis assay on ACE2-GFP HEK293T cells", "value": 14, "unit": "nM"}]}]}
